{"sequences": {"note": "Chains of the proteins cited; added tags and fusions are not shown. Residues count along the entry.", "UniProt P06756, 891-1048 limits assumed, stated change not applied": "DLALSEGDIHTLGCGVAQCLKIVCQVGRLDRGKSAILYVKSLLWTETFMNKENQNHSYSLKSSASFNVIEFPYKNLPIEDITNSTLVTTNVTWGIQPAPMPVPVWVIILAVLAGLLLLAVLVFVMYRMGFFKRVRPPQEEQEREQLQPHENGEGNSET", "UniProt P06756, 31-889 limits assumed, stated change not applied": "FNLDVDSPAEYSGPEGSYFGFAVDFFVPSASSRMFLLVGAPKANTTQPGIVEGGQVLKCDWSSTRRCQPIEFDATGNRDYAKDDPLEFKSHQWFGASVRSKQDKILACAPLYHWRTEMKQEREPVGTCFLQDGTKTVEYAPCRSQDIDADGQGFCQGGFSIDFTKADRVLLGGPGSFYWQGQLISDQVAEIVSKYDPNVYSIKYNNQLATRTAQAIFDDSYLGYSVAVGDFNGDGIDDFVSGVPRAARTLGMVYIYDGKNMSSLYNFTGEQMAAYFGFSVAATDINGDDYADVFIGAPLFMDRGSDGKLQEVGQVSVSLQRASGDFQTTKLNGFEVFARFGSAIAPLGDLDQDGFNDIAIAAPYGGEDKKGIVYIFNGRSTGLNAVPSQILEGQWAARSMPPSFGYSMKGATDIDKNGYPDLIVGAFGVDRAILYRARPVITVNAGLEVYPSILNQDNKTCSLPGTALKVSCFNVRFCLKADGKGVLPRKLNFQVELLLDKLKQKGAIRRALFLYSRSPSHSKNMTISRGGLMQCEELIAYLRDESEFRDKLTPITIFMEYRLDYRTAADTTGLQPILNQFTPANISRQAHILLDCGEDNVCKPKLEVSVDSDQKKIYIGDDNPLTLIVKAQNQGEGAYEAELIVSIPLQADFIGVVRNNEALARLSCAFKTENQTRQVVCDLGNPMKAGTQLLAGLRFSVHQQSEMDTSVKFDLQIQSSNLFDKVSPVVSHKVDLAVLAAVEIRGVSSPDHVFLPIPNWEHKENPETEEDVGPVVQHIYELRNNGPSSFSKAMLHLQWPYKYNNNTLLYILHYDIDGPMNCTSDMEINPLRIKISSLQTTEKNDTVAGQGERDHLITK", "UniProt P18564, 22-788, stated change not applied": "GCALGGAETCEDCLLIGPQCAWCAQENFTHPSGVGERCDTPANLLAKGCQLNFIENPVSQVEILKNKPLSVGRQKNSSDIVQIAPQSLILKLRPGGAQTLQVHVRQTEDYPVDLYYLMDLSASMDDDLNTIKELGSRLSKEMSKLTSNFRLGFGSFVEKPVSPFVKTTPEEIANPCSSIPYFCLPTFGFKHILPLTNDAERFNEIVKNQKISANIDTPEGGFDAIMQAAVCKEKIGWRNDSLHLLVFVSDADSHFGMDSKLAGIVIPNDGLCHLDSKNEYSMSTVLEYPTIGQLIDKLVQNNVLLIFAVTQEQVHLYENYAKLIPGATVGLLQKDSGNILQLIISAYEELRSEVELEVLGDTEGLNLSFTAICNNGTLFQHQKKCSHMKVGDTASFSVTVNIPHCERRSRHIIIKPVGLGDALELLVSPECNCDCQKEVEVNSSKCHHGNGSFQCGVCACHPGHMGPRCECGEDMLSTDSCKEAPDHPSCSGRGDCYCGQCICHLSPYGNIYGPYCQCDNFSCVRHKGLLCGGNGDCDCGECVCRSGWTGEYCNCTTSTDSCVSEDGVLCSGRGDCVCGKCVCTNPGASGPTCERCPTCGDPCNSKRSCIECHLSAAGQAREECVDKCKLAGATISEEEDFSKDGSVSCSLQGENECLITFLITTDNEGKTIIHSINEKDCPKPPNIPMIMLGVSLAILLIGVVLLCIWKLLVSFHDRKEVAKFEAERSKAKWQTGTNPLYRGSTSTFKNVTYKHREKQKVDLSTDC"}, "source": "patent US20200283532A1", "about": "“TUMOUR-TARGETING PEPTIDE VARIANTS” (Cancer Research Technology Limited, priority 2017, published 2020)", "key": {"[1]": {"target": "T1, αvβ6 integrin (A375Pβ6 cells) (Homo sapiens, UniProt P06756+P18564)", "T1 construct": "expressed in transfected cells; host or cells: A375Pβ6 (transduced A375P melanoma cells; control line A375Ppuro)", "test": "Level of binding of biotinylated peptides to A375Pβ6 cells by flow cytometry"}, "A375Pβ6 cells": {"tested_on": "A375Pβ6 cells", "assay_type": "cell-based", "experimental": "Cells were trypsinised and resuspended into DMEM (serum-free media) to prepare a cell suspension of 4×10^6 cells/ml. From this point on everything was kept on ice. 50 μl of cell suspension were aliquoted into each flow tube. Peptides were diluted in ice-cold serum-free media to 200 nM giving the final concentration of 100 nM when 50 μl was added to the cell samples. The peptides were left on ice for 15 minutes then washed twice with flow media and centrifuged for 3 minutes at 1200 rpm in between each wash step. Mouse anti-biotin (50 μl at 1:200) was added to each sample for 15 minutes, then wash steps were repeated. […] Samples were examined on an Imagestream X Mark II (Amnis, Merck) Imagestream images were assessed for internalisation compared with the 0 minute samples using on board software. […]\nCells were prepared as above except that no detergent was added prior to detecting the biotin with antibodies. Samples were analysed on a FACScalibur (Bekton-Dickinson) cytometer.\nTo assess ability to be internalized by cells at 37° C. […] Imagestream® takes a fluorescence image of each cell (FIG. 2C) enabling image analysis of the fluorescence on the surface versus the intracellular compartment. […] For flow cytometry we monitored the loss of surface expression as the peptides were internalized."}}, "data": [{"molecule": "CC(C)C[C@H](NC(=O)[C@H](CC(=O)O)NC(=O)CNC(=O)[C@H](CCCNC(=N)N)NC(=O)[C@H](CC(C)C)NC(=O)[C@H](CC(N)=O)NC(=O)[C@@H]1CCCN1C(=O)[C@@H](NC(=O)[C@H](CCCCNC(=O)CCCC[C@@H]1SC[C@@H]2NC(=O)N[C@@H]21)NC(=O)[C@H](CC(N)=O)NC(=O)CN(CCN(CCN(CC(=O)O)CC(=O)O)CC(=O)O)CC(=O)O)C(C)C)C(=O)N[C@@H](CCC(N)=O)C(=O)N[C@H](C(=O)N[C@@H](CC(C)C)C(=O)N[C@@H](C)C(=O)N[C@@H](CCC(N)=O)C(=O)N[C@@H](CCCCN)C(=O)N[C@H](C(=O)N[C@@H](C)C(=O)N[C@@H](CCCNC(=N)N)C(=O)N[C@H](C(N)=O)[C@@H](C)O)C(C)C)C(C)C", "note": "[Peptide 24]", "values": [{"measurement": "A) Affinity: mean activity relative to biotinylated A20FMDV2 (100 nM)", "setting": "[1]", "value": "1.19 ± 0.30"}, {"measurement": "B) Internalisation: mean % internalisation at 45 min relative to biotinylated A20FMDV2 (100 nM)", "setting": "A375Pβ6 cells", "value": "0.98 ± 0.12"}]}]}
